Results taken from publication PMC7277541, “Antimicrobial and Antifungal Activities of Terpene-Derived Palladium Complexes” (Antibiotics, 2020).

Columns and labels:
[1] = tested on: C. neoformans var. grubii H99 ATCC 208821; assay: Antifungal MIC assay, C. neoformans; assay type: cell-based, Cryptococcus neoformans; settings: for Selectivity Index (SI) C. neoformans CC50/MIC: CC50 against HEK293 divided by MIC C. neoformans var grubii H99 ATCC 208821; for Selectivity Index (SI) C. neoformans HC10/MIC: HC10 human red blood cells divided by MIC C. neoformans var grubii H99 ATCC 208821
Method: Screening against bacteria and yeasts for antimicrobial activity and toxicity against mammalian cells was performed in duplicate (n = 2). […] Becton Dickinson 242720) agar at 30 °C. A yeast suspension of 1 × 10^6 to 5 × 10^6 CFU/mL (as determined by OD530) was prepared from five colonies form the agar plates, and subsequently diluted with Yeast Nitrogen Base media (YNB; Becton Dickinson 233520), and added to each well of the compound containing plates (384-well plates, NBS; […] Plates were covered and incubated at 35 °C for 36 h without shaking. […] Fluconazole (Sigma Aldrich, F8929) was used as a positive inhibitor control on each plate for both strains.

[2] = tested on: S. aureus (MRSA) ATCC 43300; assay: Antibacterial MIC assay, S. aureus (MRSA); assay type: cell-based, Staphylococcus aureus; settings: for Selectivity Index (SI) S. aureus (MRSA) CC50/MIC: CC50 against HEK293 divided by MIC S. aureus ATCC 43300; for Selectivity Index (SI) S. aureus (MRSA) HC10/MIC: HC10 human red blood cells divided by MIC S. aureus ATCC 43300
Method: Dry compounds were dissolved in dimethyl sulfoxide (DMSO), and serially diluted 2-fold to produce an 8-point dose response with DMSO/water and then added into microtiter plates with a final DMSO concentration of 0.5%, providing a concentration range of 0.25 to 32 μg/mL. Screening against bacteria and yeasts for antimicrobial activity and toxicity against mammalian cells was performed in duplicate (n = 2).
For the bacterial assays, each bacterial strain was cultured in Cation-Adjusted Mueller Hinton Broth (CAMHB; Bacto Laboratories 212322) at 37 °C overnight. Bacterial strains tested were methicillin resistant S. aureus (methicillin-resistant Staphylococcus aureus - MRSA) ATCC 43300, E. coli ATCC 25922, K. pneumoniae K6/ESBL ATCC 700603, P. aeruginosa ATCC 27853, A. baumannii ATCC 19606. A sample of each culture was then diluted 40-fold in fresh CAMHB and incubated at 37 °C for 1.5–3 h. The resultant mid-log phase cultures were diluted with CAMHB (CFU/mL measured by OD600), then added to each well of the compound-containing plates (384-well non-binding surface (NBS) plates; Corning CLS3640), giving a final cell density of 5 × 10^5 CFU/mL and a total volume of 50 μL. Plates were covered and incubated at 37 °C for 18 h without shaking. Inhibition of bacterial growth was determined by measuring absorbance at 600 nm (OD600), using media only as negative control and bacteria without inhibitors as positive control. MIC values were determined as the lowest concentration at which the growth was inhibited by ≥ 80% (equivalent to no visible growth by eye). Colistin sulfate (Sigma Aldrich, Castle Hill, Australia C4461) and vancomycin HCl (Sigma Aldrich, 861987) were used as positive inhibitor controls on each plate for Gram-negative and Gram-positive bacteria, respectively.

| Compound | Selectivity Index (SI) C. neoformans CC50/MIC [1] | Selectivity Index (SI) C. neoformans HC10/MIC [1] | Selectivity Index (SI) S. aureus (MRSA) CC50/MIC [2] | Selectivity Index (SI) S. aureus (MRSA) HC10/MIC [2] |
| --- | --- | --- | --- | --- |
| CC12CCC(C(=NC(c3ccccc3)c3cccc[c]3[Pd][Cl])C1=O)C2(C)C.CC12CCC(C(=NC(c3ccccc3)c3cccc[c]3[Pd][Cl])C1=O)C2(C)C (stereo not drawn) [Compound 3] | 12.0 | >64 | 0.4 | >2 |
| C[C@H](N[C@@H]1C[C@H]2C[C@H](C2(C)C)[C@@]1(C)O)c1cccc[c]1[Pd][Cl].C[C@H](N[C@@H]1C[C@H]2C[C@H](C2(C)C)[C@@]1(C)O)c1cccc[c]1[Pd][Cl] [Compound 4] | > 50 and >66.4 | >22.4 | 0.5 | 0.2 |
| CC(C)(C)c1cc(C=NCCN=C2C[C@H]3C[C@H](C3(C)C)[C@@]2(C)O)c([O][Pd][Cl])c(C(C)(C)C)c1 [Compound 6] | 1–2 and 1.1 | 1–2 and 2.0 | 0.6 | ~ 1 and 1.0 |
| CC12CCC(CC1=NCCN=Cc1ccccc1[O][Pd][Cl])C2(C)C (stereo not drawn) [Compound 7] | > 8 | > 8 | – | – |
| CC1(C)[C@H]2CC(=NCCN)[C@](C)(O)[C@@H]1C2.[Cl][Pd][Cl] [Compound 8] | > 8 | 1.7 | – | ≤0.2 |
| CN(C)CCN=C1C[C@H]2C[C@H](C2(C)C)[C@@]1(C)O.[Cl][Pd][Cl] [Compound 9] | > 16 | >16 | – | – |
| CC1(C)[C@@H]2C[C@H]1[C@@](C)(O)[C@H](NCCN[C@@H]1C[C@H]3C[C@H](C3(C)C)[C@@]1(C)O)C2.[Cl][Pd][Cl] [Compound 10] | > 8 | 1.2 | – | ≤0.1 |
| CN(C)CCN=CC1=CCC2CC1C2(C)C.[Cl][Pd][Cl] (stereo not drawn) [Compound 11] | > 43.2 | >128 | ≤0.3 | – |
| CN(C)CCNCC1=CCC2CC1C2(C)C.[Cl][Pd][Cl] (stereo not drawn) [Compound 12] | > 128 | > 128 | – | – |

Where “and” joins values, the source holds several entries; their conditions need not be identical. Equal values may be shown once.
